Source: US7652025B2 (priority 2001, dated 2010)

System: Lipopolysaccharide (LPS)-induced lethal sepsis
Settings: ICR mice; LPS 20 mg/kg i.p.; compound 15 mg/kg s.c. two hours after LPS; control group 33.3%

For `CN(C(=O)Cc1ccc(Cl)c(Cl)c1)[C@H]1CCCC[C@@H]1N1CCCC1` (racemic), the “survival rate at 24 hours after administration of LPS” value was 60%.
